Screening data, single-dose tests

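Whole-cell growth test on Mycobacterium tuberculosis, read after 3 days in glucose-containing 7H9 medium; the read-out is not stated. Compounds at 50 µM. Higher reads as more growth inhibition (inferred: compounds with an IC50 in retests scored well above the rest). Size under these conditions: about 69,000 compounds, about 760 of them at 50% or above in at least one test.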

Each number is a percent effect as filed. How 0% and 100% were set is not recorded. Most values in the screen are low, and negative values occur. This is part of a subset picked to be rich in strong results. Two or more numbers in one place are separate tests of the same structure; such repeats can differ widely.

SMILES,Percent Effect
Cc1nnc(CN(Cc2ccccc2Br)C2CC2)o1,33.74 & 60.33
Cc1cnc(C)c(N2CCN(Cc3ccc(-c4cc[nH]n4)o3)CC2)n1,50.26
CS(=O)(=O)c1ccc(Cl)c(C(=O)NCCC2=CCCCC2)c1,-57.15
CC(C)Cc1nnc(NCc2ccsc2)o1,56.99
CCc1c(C)n(C)c2nc3ccccc3n2c1=O,-10.73 & -5.159
Cc1nc(-c2cccc(N3CCC(N[C@@H]4CCOC4)CC3)c2)cs1,24.84
Cc1nc(COCc2cnc3n2CCN(C)C3C)cs1.O=C(O)C(F)(F)F (stereo unspecified),-9.801 & -3.505
CC(C)Oc1ccc(CN2CCCC(N3CCOCC3)C2)cc1CO (stereo unspecified),-5.498 & 1.078
O=C(NCCC1Cc2ccccc2C1)N1CCCC(O)C1 (stereo unspecified),-16.49 & -9.279
CS(=O)(=O)NC1CCN(Cc2coc(-c3ccccc3)n2)CC1,-18.69 & 0.6123
CCc1ccccc1CNC(=O)CNC(=O)C(C)(C)C,-0.3959
O=C1CCCN1Cc1nnc(SCc2ccc3c(c2)CCC3)o1,31.7
CCN1CCN(CC(O)c2ccc(F)cc2)CC1 (stereo unspecified),16.95
CSc1nccc(N2CCC3(CCCN(Cc4ccc(F)cc4)C3)C2)n1 (stereo unspecified),91.36
COc1cc(-c2ccc(F)c3c2OC(CN)C3)cc(OC)c1OC (stereo unspecified),37.59
c1ccc2nc(N3CCOC(Cn4cccn4)C3)cnc2c1 (stereo unspecified),30.94
CN(Cc1nnc2n1CCC2)C(=O)c1ccc2c(c1)OCCO2,-42.91
CSC1=Nc2c(cnn2-c2cccc(Cl)c2)C2=NCCCN12,39.95
CCNC(=O)CCCC(=O)N1CCc2cc(Cl)cc(Cl)c2C1,71.36
COc1ccc(C2CCCN2c2ccc(C#N)cn2)c(OC)c1 (stereo unspecified),51.42
CN1CCN(C(=O)c2cnsn2)c2cc(F)ccc21,1.599
NC(=O)C(NC(=O)c1cc(Br)c[nH]1)c1ccccc1 (stereo unspecified),2.334

For reference, 2 entries once more:

Cc1nnc(CN(Cc2ccccc2Br)C2CC2)o1 gave 33.74% & 60.33%.
CSC1=Nc2c(cnn2-c2cccc(Cl)c2)C2=NCCCN12 gave 39.95%.

Data taken from ChEMBL document CHEMBL3988442, “University of Dundee, Small-Polar-MMV Screening Library” (2021).